Three molecules from US20080292704A1 (published 2008) can be followed below.

The target of this experiment is Hc (BoNT/A Hc with 6xHis tag) (Clostridium botulinum (C. Botulinum), …, UniProt P0DPI0 857-1296).

B1: recombinant FcγRI ligand binding domain, 6xHis tagged (receptor)
chain: QVDTTKAVITLQPPWVSVFQEETVTLHCEVLHLPGSSSTQWFLNGTATQTSTPSYRITSASVNDSGEYRCQRGLSGRSDPIQLEIHRGWLLLQVSSRVFTEGEPLALRCHAWKDKLVYNVLYYRNGKAFKFFHWNSNLTILKTNISHNGTYHCSGMGKHRYTSAGISVTVKELFPAPVLNASVTSPLLEGNLVTLSCETKLLLQRPGLQLYFSFYMGSKTLRGRNTSSEYQILTARREDSGLYWCEAATEDGNVLKRSPELELQVLGLQLPTPVWFH
As for B1, the binding result is on record as “no binding”.

B2: recombinant FcγRIIa ligand binding domain, 6xHis tagged (receptor)
chain: QAAAPPKAVLKLEPPWINVLQEDSVTLTCQGARSPESDSIQWFHNGNLIPTHTQPSYRFKANNNDSGEYTCQTGQTSLSDPVHLTVLSEWLVLQTPHLEFQEGETIMLRCHSWKDKPLVKVTFFQNGKSQKFSHLDPTFSIPQANHSHSGDYHCTGNIGYTLFSSKPVTITVQVPSMGSSSPMG
Regarding B2, the binding result is given as “no binding”.

B3: recombinant FcγRIIb ligand binding domain, 6xHis tagged (receptor)
chain: TPAAPPKAVLKLEPQWINVLQEDSVTLTCRGTHSPESDSIQWFHNGNLIPTHTQPSYRFKANNNDSGEYTCQTGQTSLSDPVHLTVLSEWLVLQTPHLEFQEGETIVLRCHSWKDKPLVKVTFFQNGKSKKFSRSDPNFSIPQANHSHSGDYHCTGNIGYTLYSSKPVTITVQAP
As to B3, the binding result is “no binding”.
